{
  "source": "paper PMC8954220",
  "about": "“Sparsomycin Exhibits Potent Antiplasmodial Activity In Vitro and In Vivo” (Pharmaceutics, 2022)",
  "key": {"P. falciparum 3D7": {"system": "P. falciparum 3D7", "test": "SYBR Green I-based fluorescence in vitro growth inhibition assay", "assay_type": "cell-based, Plasmodium falciparum", "conditions": "selectivity index, ratio between IC50 (3D7) and CC50 (HFF)"}, "P. falciparum K1": {"system": "P. falciparum K1", "test": "SYBR Green I-based fluorescence in vitro growth inhibition assay", "assay_type": "cell-based, Plasmodium falciparum", "conditions": "selectivity index, ratio between IC50 (K1) and CC50 (HFF)"}},
  "data": [
    {"smiles": "CCN(CC)CCCC(C)Nc1ccnc2cc(Cl)ccc12", "note": "(centres unmarked) [Chloroquine, Chloroquine diphosphate, reference compound]", "values": [
      {"measurement": "SI for P. falciparum 3D7", "setting": "P. falciparum 3D7", "value": 790.46},
      {"measurement": "SI for P. falciparum K1", "setting": "P. falciparum K1", "value": 27.98}
    ]}
  ]
}
